Results taken from article PMC7536154, “Biochemical characterization of ferric uptake regulator (Fur) from Aliivibrio salmonicida. Mapping the DNA sequence specificity through binding studies and structural modelling”.
Weaker means in comparison with the reference protein, sequence or condition of that experiment. Where a protein sequence is shown, tags need not be part of it.

Biological target: T1, AsFur (ferric uptake regulator) (Aliivibrio salmonicida) (UniProt Q7AUU7)
T1 sequence (looked up): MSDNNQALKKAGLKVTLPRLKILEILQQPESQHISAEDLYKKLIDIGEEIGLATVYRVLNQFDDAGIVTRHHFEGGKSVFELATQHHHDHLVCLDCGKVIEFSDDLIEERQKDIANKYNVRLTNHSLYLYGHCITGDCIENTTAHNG
Test: EMSA
Conditions: Mn2+ (100 uM MnCl2); EMSA: 20 mM Tris acetate pH 8.0, 1 mM MgCl2, 50 mM KCl, 1 mM DTT, 100 uM MnCl2, RT, 5 uM DNA, 0-80 uM AsFur, gel at 6 C; recombinant protein; residues 1-147

Binding result, binds more weakly:
AAATGATAATAATTAT / TATAATTATTATCATT [Vibrio shortened 16-mer, sticky ends (H)]
AATGATAATAATTAT (double strand) [Vibrio shortened 15-mer (I)]
GATAATGATAATGATAATC / ATTATCATTATCATTATCG [E. coli 3 x GATAAT, sticky ends (K)]
GATAATGATAATGATAATGATAAT (double strand) [E. coli 4 x GATAAT (L)]
